In this test the test system is HIV-1NL4-3. Put plainly: HIV-1 NL4-3 replication assay in SupT1 cells (p24 ELISA). Particulars: 3 μM; 2.1 ng of HIV-1 p24. A general note: In an ELISA, binding on a coated surface is turned into a signal by an enzyme label.

These results are taken from patent US10358419B2, “1,3-dipolar [70]fulleropyrrolidinium iodide derivatives” (priority 2015, dated 2019).

Take “mixture of α, β and γ-N—N-dimethyl[70]fulleropyrrolidinium iodide [Compound 2a]”: the “HIV-1 replication at the lowest multiplicity of infection” value was “replication remains undetected for more than two weeks”.
